Laboratory results: PubChem BioAssay AID1224833 (University of Georgia, 2016)
The deposit covers about 12,000 reagents; shown is a part drawn at random. In the full data, about 5,600 (46%) are marked active. 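Active calls cover z-scores past 1 in both directions, so they include lowered as well as raised rotavirus replication.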 Entries without a mark were called inactive.

Assay: 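Human genes whose knock-down alters rotavirus replication in monkey cells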 (primary screen)
System: monkey MA104 kidney cells
Knock-down reagent: siRNA pool against human genes, 50 nM
Timing: 48 h knock-down before infection; read 24 h after infection
Treatment: infection with rotavirus strain RV3 two days after transfection; infectious dose for this stage not given
Read-out: 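z-score of rotavirus antigen signal per well, from a fluorescent immunoassay, relative to non-targeting control wells on the same plate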
Reading the numbers: z-score vs non-targeting control: higher = more rotavirus replication than with non-targeting control
Rule for the call: In these data the active calls have z-score vs non-targeting control at about -1 or lower, or at about 1 or higher
Calls: active = z-score beyond 1 either way; inactive = z-score within 1 of zero

gene symbol	z-score vs non-targeting control
DEFB106A (defensin beta 106A)	0.916
KYAT3 (kynurenine aminotransferase 3)	-1.05 (active)
SF3B2 (splicing factor 3b subunit 2)	0.951
OR5J2 (olfactory receptor family 5 subfamily J member 2)	-1.27 (active)
SORT1 (sortilin 1)	2.27 (active)
SCAMP3	0.523
ZBED8L (ZBED8 like)	1.07 (active)
FANCB (FA complementation group B)	-2.02 (active)
KRT26 (keratin 26)	-1.45 (active)
LLGL1 (LLGL scribble cell polarity complex component 1)	-1.95 (active)
PPP4R2 (protein phosphatase 4 regulatory subunit 2)	-1.12 (active)
AMELY (amelogenin Y-linked)	0.467
RHEX (regulator of hemoglobinization and erythroid cell expansion)	1.75 (active)
TMPRSS11D (transmembrane serine protease 11D)	1.48 (active)
STAMBPL1 (STAM binding protein like 1)	-2.84 (active)
ATL3 (atlastin GTPase 3)	-1.31 (active)
TENT5C (terminal nucleotidyltransferase 5C)	1.52 (active)
FKBP3 (FKBP prolyl isomerase 3)	-2.48 (active)
RAB8B (RAB8B, member RAS oncogene family)	0.757
NKX2-3 (NK2 homeobox 3)	0.925
GJC2 (gap junction protein gamma 2)	-0.885
CEACAM1 (CEA cell adhesion molecule 1)	0.466
TMOD2 (tropomodulin 2)	-0.256
ANKRD26 (ankyrin repeat domain 26)	-1.45 (active)
LCN9 (lipocalin 9)	1.58 (active)
EPCAM (epithelial cell adhesion molecule)	-0.228
ERLIN2 (ER lipid raft associated 2)	0.72
CNTNAP4 (contactin associated protein family member 4)	-0.0834
TMC3 (transmembrane channel like 3)	-0.733
ZC3H18 (zinc finger CCCH-type containing 18)	-1.16 (active)
CMA1 (chymase 1)	1.24 (active)
ABHD4 (abhydrolase domain containing 4, N-acyl phospholipase B)	-1.46 (active)
PSD2 (pleckstrin and Sec7 domain containing 2)	0.578
GFRA4 (GDNF family receptor alpha 4)	1.73 (active)
CARMIL3 (capping protein regulator and myosin 1 linker 3)	2.65 (active)
GNA11 (G protein subunit alpha 11)	-0.755
RPL9 (ribosomal protein L9)	0.757
MCF2 (MCF.2 cell line derived transforming sequence)	-1.01 (active)
TTLL1 (TTL family tubulin polyglutamylase complex subunit L1)	2.91 (active)
OR12D2 (olfactory receptor family 12 subfamily D member 2)	-2.09 (active)
ANXA4 (annexin A4)	0.329
SEPTIN5 (septin 5)	0.516
SHMT2 (serine hydroxymethyltransferase 2)	-2.66 (active)
DDA1 (DET1 and DDB1 associated 1)	0.434
AATF (apoptosis antagonizing transcription factor)	-1.23 (active)
DAGLA (diacylglycerol lipase alpha)	0.875
OR6N1 (olfactory receptor family 6 subfamily N member 1)	-2.14 (active)
SLC8A1	-0.902
OR2H2 (olfactory receptor family 2 subfamily H member 2)	-0.436
ABHD13 (abhydrolase domain containing 13)	-0.944
LZTS2 (leucine zipper tumor suppressor 2)	-0.856
B3GNT6	-0.745
FCHSD2 (FCH and double SH3 domains 2)	-0.566
DBP (D-box binding PAR bZIP transcription factor)	-0.594
CIROZ	1.21 (active)
CYP24A1 (cytochrome P450 family 24 subfamily A member 1)	-1.57 (active)
RALGAPB (Ral GTPase activating protein non-catalytic subunit beta)	1.22 (active)
SDHAF4 (succinate dehydrogenase complex assembly factor 4)	-0.378
RPL14 (ribosomal protein L14)	-0.107
WDR33 (WD repeat domain 33)	-0.464
ERCC6L (ERCC excision repair 6 like DNA helicase)	1.38 (active)
ZNF287 (zinc finger protein 287)	0.716
ARV1 (ARV1 fatty acid homeostasis modulator)	0.112
ZSWIM3 (zinc finger SWIM-type containing 3)	-1.99 (active)
FAM135A (family with sequence similarity 135 member A)	1.51 (active)
CENPK (centromere protein K)	0.309
NXPE3 (neurexophilin and PC-esterase domain family member 3)	-1.24 (active)
MON2 (MON2 regulator of endosome-to-Golgi trafficking)	1.14 (active)
PLVAP (plasmalemma vesicle associated protein)	-0.612
DLL1 (delta like canonical Notch ligand 1)	-1.4 (active)
EEF2 (eukaryotic translation elongation factor 2)	-2.04 (active)
COL5A1 (collagen type V alpha 1 chain)	1.42 (active)
NTAN1 (N-terminal asparagine amidase)	0.739
RTL10 (retrotransposon Gag like 10)	-1.35 (active)
CARD18 (caspase recruitment domain family member 18)	0.947
DNAI3 (dynein axonemal intermediate chain 3)	0.123
NOL12 (nucleolar protein 12)	2.36 (active)
GSG1 (germ cell associated 1)	0.034
FHIP2B (FHF complex subunit HOOK interacting protein 2B)	0.872
SDHA (succinate dehydrogenase complex flavoprotein subunit A)	0.615
TCL1A (TCL1 family AKT coactivator A)	-1.25 (active)
H2BC3 (H2B clustered histone 3)	-1.06 (active)
MISO1 (mitochondrial inner membrane subdomain organizer 1)	-0.613
ZNF101 (zinc finger protein 101)	-0.194
GBF1	-1.01 (active)
S100A7P3 (S100 calcium binding protein A7 pseudogene 3)	1.84 (active)
RAI2 (retinoic acid induced 2)	-0.914
CHIT1 (chitinase 1)	0.536
TRAM1 (translocation associated membrane protein 1)	-0.996
SOX30 (SRY-box transcription factor 30)	1.25 (active)
ZDHHC14 (zDHHC palmitoyltransferase 14)	4.03 (active)

11 entries from above, reformatted:
gene symbol | z-score vs non-targeting control
TTLL1 (TTL family tubulin polyglutamylase complex subunit L1) | 2.91 (active)
OR12D2 (olfactory receptor family 12 subfamily D member 2) | -2.09 (active)
ANXA4 (annexin A4) | 0.329
SEPTIN5 (septin 5) | 0.516
SHMT2 (serine hydroxymethyltransferase 2) | -2.66 (active)
DDA1 (DET1 and DDB1 associated 1) | 0.434
AATF (apoptosis antagonizing transcription factor) | -1.23 (active)
DAGLA (diacylglycerol lipase alpha) | 0.875
OR6N1 (olfactory receptor family 6 subfamily N member 1) | -2.14 (active)
SLC8A1 | -0.902
OR2H2 (olfactory receptor family 2 subfamily H member 2) | -0.436

Continued.
gene symbol	z-score vs non-targeting control
PDLIM4 (PDZ and LIM domain 4)	0.45
CYP11B1 (cytochrome P450 family 11 subfamily B member 1)	-1.67 (active)
COMTD1 (catechol-O-methyltransferase domain containing 1)	-0.979
SLIT2 (slit guidance ligand 2)	-0.781
ATP6V1E2 (ATPase H+ transporting V1 subunit E2)	0.0154
GEMIN2 (gem nuclear organelle associated protein 2)	0.993
EIF3M (eukaryotic translation initiation factor 3 subunit M)	-1.56 (active)
DDIT3 (DNA damage inducible transcript 3)	-1.59 (active)
EXOSC6 (exosome component 6)	1.19 (active)
CDKAL1 (CDKAL1 threonylcarbamoyladenosine tRNA methylthiotransferase)	-0.122
PDCL3 (phosducin like 3)	0.385
FBN3 (fibrillin 3)	-0.815
PDCD7 (programmed cell death 7)	0.625
CNOT10 (CCR4-NOT transcription complex subunit 10)	-0.543
SYT12 (synaptotagmin 12)	-0.614
CD300LD-AS1 (CD300LD antisense RNA 1)	-2.26 (active)
OR8B3 (olfactory receptor family 8 subfamily B member 3)	-0.262
SPATA32 (spermatogenesis associated 32)	-1.72 (active)
SPIDR (scaffold protein involved in DNA repair)	-1.08 (active)
ARL11 (ARF like GTPase 11)	-0.189
MBIP (MAP3K12 binding inhibitory protein 1)	0.536
TSACC (TSSK6 activating cochaperone)	-2.14 (active)
POLR1A (RNA polymerase I subunit A)	-1.24 (active)
BCDIN3D (BCDIN3 domain containing RNA methyltransferase)	1.01 (active)
CCL16 (C-C motif chemokine ligand 16)	-2.73 (active)
SAT1 (spermidine/spermine N1-acetyltransferase 1)	-0.589
SPINK14 (serine peptidase inhibitor Kazal type 14 (putative))	-1.49 (active)
COMMD2 (COMM domain containing 2)	-0.155
IL4R (interleukin 4 receptor)	-1.6 (active)
CSRP2 (cysteine and glycine rich protein 2)	1.1 (active)
NUDT18 (nudix hydrolase 18)	-2.48 (active)
DUSP28 (dual specificity phosphatase 28)	-1.11 (active)
DIAPH2 (diaphanous related formin 2)	-1.27 (active)
KAT6B (lysine acetyltransferase 6B)	-0.72
OR6C65 (olfactory receptor family 6 subfamily C member 65)	-0.234
DIRC1 (disrupted in renal carcinoma 1)	1.15 (active)
CADM1 (cell adhesion molecule 1)	2.11 (active)
SUMF2 (sulfatase modifying factor 2)	-1.13 (active)
MB (myoglobin)	-0.346
CDH15 (cadherin 15)	-0.28
FBXW10B (F-box and WD repeat domain containing 10B)	-1.38 (active)
AFG1L (AFG1 like ATPase)	-0.555
RPL15 (ribosomal protein L15)	-1.23 (active)
KATNIP (katanin interacting protein)	-1.75 (active)
OR9A4 (olfactory receptor family 9 subfamily A member 4)	0.764
TNFSF11 (TNF superfamily member 11)	-0.3
CNDP1 (carnosine dipeptidase 1)	1.33 (active)
OPALIN (oligodendrocytic myelin paranodal and inner loop protein)	1.14 (active)
SPAST (spastin)	-1.49 (active)
